Experimental data reported in patent US20220356230A1.
Numbering of substitutions follows the chain as printed. “And” between values parts separate entries of the source, which are not always exact repeats. Equal entries are not always repeated.

B1: mAb10971 (antibody)
heavy: EVQLVESGGGLIQPGGSLRLSCAASGVTVSSNYMSWVRQAPGKGLEWVSVIYSGGSTFYSDSVKGRFSISRDNSKNTLYLQMNSLRAEDTAVYYCARDLYYYGMDVWGQGTTVTVSSASTKGPSVFPLAPSSKSTSGGTAALGCLVKDYFPEPVTVSWNSGALTSGVHTFPAVLQSSGLYSLSSVVTVPSSSLGTQTYICNVNHKPSNTKVDKKV[human IgG1 Fc left out here]
light: DIQLTQSPSFLSASVGDRVTITCRASQGISTYLAWYQQKPGKAPKLLIYAASTLQSGVPSRFSGSGSGTEFTLTISSLQPEDFATYYCQQLDSYPGLTFGGGTKVEIKRTVAAPSVFIFPPSDEQLKSGTASVVCLLNNFYPREAKVQWKVDNALQSGNSQESVTEQDSKDSTYSLSSTLTLSKADYEKHKVYACEVTHQGLSSPVTKSFNRGEC
B2: mAb10955 (antibody)
heavy: EVQLVESGGGLVQPGGSLRVSCAASGFTVSRNYMSWVRQAPGKGLEWVSVIYSGGSTFYADSVKGRFTISRDNSKNTLYLQMNSLRAEDTAIYYCARYIPRFDPWGQGTLVTVSSASTKGPSVFPLAPSSKSTSGGTAALGCLVKDYFPEPVTVSWNSGALTSGVHTFPAVLQSSGLYSLSSVVTVPSSSLGTQTYICNVNHKPSNTKVDKKV[human IgG1 Fc left out here]
light: DIQMTQSPSSLSASVGDRVTITCQASQDISNYLNWFQQKPGRAPKLLIYDASNLETGVPSRFSGSGSGTDFTFTISSLQPEDIATYYCQQYDNLPITFGQGTRLEIKRTVAAPSVFIFPPSDEQLKSGTASVVCLLNNFYPREAKVQWKVDNALQSGNSQESVTEQDSKDSTYSLSSTLTLSKADYEKHKVYACEVTHQGLSSPVTKSFNRGEC
B3: mAb10964 (antibody)
heavy: QVQLQESGPGLVKPSETLSLTCTVSGGSINNYYWIWIRQPPGKGLEWIGYIYHSGSTNYNPSLKSRVTISVDTSKNQFSLKVSSVTAADTAVYYCANMVRGVYEDDYWGQGTLVTVSSASTKGPSVFPLAPSSKSTSGGTAALGCLVKDYFPEPVTVSWNSGALTSGVHTFPAVLQSSGLYSLSSVVTVPSSSLGTQTYICNVNHKPSNTKVDKKV[human IgG1 Fc left out here]
light: DIQMTQSPSSLSASVGDRVTITCRASQSISNYLNWYQQKPGKAPKLLIFAASSLRSGVPSRFSGSGSGTDFTLTISSLHPEDFATYYCQQNYNTPLTFGPGTKVDIKRTVAAPSVFIFPPSDEQLKSGTASVVCLLNNFYPREAKVQWKVDNALQSGNSQESVTEQDSKDSTYSLSSTLTLSKADYEKHKVYACEVTHQGLSSPVTKSFNRGEC
B4: mAb10966 (antibody)
heavy: EVQLVESGGGLVQPGGSLRLSCAASGLTVSSNYMSWVRQAPGKGLEWVSVIYSGGSTFYADSVKGRFTISRDNSKNTLYLQMNSLRPEDTAVYYCAREGRIAATGYGMDVWGQGTTVTVSSASTKGPSVFPLAPSSKSTSGGTAALGCLVKDYFPEPVTVSWNSGALTSGVHTFPAVLQSSGLYSLSSVVTVPSSSLGTQTYICNVNHKPSNTKVDKKV[human IgG1 Fc left out here]
light: B2 light with F36Y, R42K, E55G, G66R, Q89H, I96Q, Q100P, R103K, L104V, E105D
B5: mAb10939 (antibody)
heavy: EVQLVESGGGLVQPGGSLRLSCAASGLTVSSNYMNWVRQVPGKGLEWVSVIYSGGSKFYVDSVKGRFTISRHNSKNTLYLQMNSLRPEDTAVYYCTRDAQYYGMDVWGQGTTVTVSSASTKGPSVFPLAPSSKSTSGGTAALGCLVKDYFPEPVTVSWNSGALTSGVHTFPAVLQSSGLYSLSSVVTVPSSSLGTQTYICNVNHKPSNTKVDKKV[human IgG1 Fc left out here]
light: DIQMTQSPSSLSASVGDRVTITCRASQSISTYLHWYQQKPGEAPKLLIYAASSLQSGVPSRFSGSGSGTDFTLTISSLQPEDFATYYCQQSYSTPPEIFGQGTKLEIKRTVAAPSVFIFPPSDEQLKSGTASVVCLLNNFYPREAKVQWKVDNALQSGNSQESVTEQDSKDSTYSLSSTLTLSKADYEKHKVYACEVTHQGLSSPVTKSFNRGEC
B6: mAb10920 (antibody)
heavy: QVQLVESGGGVVQPGRSLRLSCAASGFTFSYYGMHWVRQAPGKGLEWVAVIWYDGSNKFYADSVKGRFTISRDNSKNTLYLQMNSLRAEDTAVYYCAAARPGYYYGMDVWGQGTTVTVSSASTKGPSVFPLAPSSKSTSGGTAALGCLVKDYFPEPVTVSWNSGALTSGVHTFPAVLQSSGLYSLSSVVTVPSSSLGTQTYICNVNHKPSNTKVDKKV[human IgG1 Fc left out here]
light: DIQMTQSPSSLSASVGDRVTITCRASQGISNYLAWFQQKPGKAPNSLIYAASSLQRGVPSKFSGSGSGTDFTLTISSLQPEDFATYYCQQYNSYPRTFGQGTKVEIKRTVAAPSVFIFPPSDEQLKSGTASVVCLLNNFYPREAKVQWKVDNALQSGNSQESVTEQDSKDSTYSLSSTLTLSKADYEKHKVYACEVTHQGLSSPVTKSFNRGEC

Target: SARS-CoV-2 Spike Protein (RBD)([…]).mmH (SARS-CoV-2)
Experiment: Luminex bead assay, supernatant on antigen microspheres
Conditions: remark: other sources report otherwise

Row | Binder | Binding signal (MFI)
1 | B1 | 28800
2 | B2 | 28500
3 | B3 | 28900
4 | B4 | 27400

Target: T1, SARS-COV-2-S RBD extracellular domain expressed with a C-terminal myc-myc-hexahistidine (SARS-COV-2 RBD-MMH) (SARS-CoV-2)
Experiment: not given
Conditions: remark: other sources report otherwise

Row | Binder | t½
5 | B1 | 12.2 min and 9.1 min
6 | B2 | 0.8 min

Target: T2, Bt-SARS-CoV-2 Spike Protein (RBD)([…]).mFc (SARS-CoV-2)
Experiment: Luminex bead assay, antibody supernatant, biotinylated antigen on microspheres
Conditions: remark: other sources report otherwise

Row | Binder | Binding signal (MFI)
7 | B5 | 18700
8 | B6 | 20300

Target: T3, Bt-SARS-CoV-2 Spike Protein (RBD)([…]).hFc (SARS-CoV-2)
Experiment: as above
Conditions: remark: other sources report otherwise

Row | Binder | Binding signal (MFI)
9 | B5 | 28900
10 | B6 | 31700

Target: T1, SARS-COV-2-S RBD extracellular domain …
Experiment: not given
Conditions: remark: other sources report otherwise
Remark: another data set of the same source

Row | Binder | t½
11 | B1 | 12.2 min and 6.8 min
12 | B2 | 0.6 min
13 | B5 | 1 min

Target: SARS-CoV-2 Spike Protein (RBD)([…]).mmH (SARS-CoV-2)
Experiment: Luminex bead assay, supernatant on antigen microspheres
Conditions: remark: other sources report otherwise
Remark: another data set of the same source

Row | Binder | Binding signal (MFI)
14 | B1 | 29400
15 | B2 | 29600
16 | B3 | 31800
17 | B4 | 30900

Target: T2, Bt-SARS-CoV-2 Spike Protein …
Experiment: not given
Conditions: remark: other sources report otherwise

Row | Binder | Binding signal (MFI)
18 | B1 | 16700
19 | B2 | 16800
20 | B3 | 19200
21 | B4 | 17900

Target: SARS-CoV-2 Spike Protein (RBD)([…]).mmH (SARS-CoV-2)
Experiment: not given
Conditions: remark: other sources report otherwise

Row | Binder | Binding signal (MFI)
22 | B5 | 32200 MFI and 30900 MFI
23 | B6 | 34800 MFI and 34400 MFI

Target: T3, Bt-SARS-CoV-2 Spike Protein …
Experiment: not given
Conditions: remark: other sources report otherwise

Row | Binder | Binding signal (MFI)
24 | B1 | 24600
25 | B2 | 24700
26 | B3 | 27700
27 | B4 | 25100
